This data set can be described thus: MK-8527-TP in PBMCs of rhesus monkeys after oral dosing. The settings on record: oral MK-8527 50 mg/kg.

For part of its entries the source gives two or more results. The other results are left out here. The source may hold further records. Values that stand side by side differ for a reason that is not stated; they may come from other doses, times, organisms or constructs than stated.

For `C#C[C@]1(COP(=O)(O)OP(=O)(O)OP(=O)(O)O)O[C@@H](n2ccc3c(N)nc(Cl)nc32)C[C@@H]1O` [MK-8527-TP], the “Intracellular half-life in PBMCs” value is “approximately 48 h and 48 h”.

(Values after article PMC12380353, “MK-8527 is a novel inhibitor of HIV-1 reverse transcriptase translocation with potential for extended-duration dosing” (PLOS Biology, 2025).)
